Experimental findings from PubChem BioAssay AID743093 (The Scripps Research Institute Molecular Screening Center, 2013) are described below.

The entries are a selection whose mix differs from that of the whole data set. Calls of active or inactive are those of the source.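 The calls were made as follows: active = inhibition above the mean plus 3 SD of compounds within the control limits, set per campaign (cut at about 38% in these data); inactive = the rest.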

By inhibition is commonly meant the relative decrease from the control value, in per cent.

The test in a line: reduced ATP in mature Plasmodium gametocytes – ATP luminescence, HTS, primary screen (AID 743093).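 Also: 0% = DMSO wells and 100% = medium only without gametocytes.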 Particulars: P. falciparum stage V gametocytes, 24 h, at 10.9 µM, hits give high values.
For the compound `CC(C)c1ccc(OP(=O)(Nc2ccccn2)Oc2ccccc2F)cc1` (stereo not drawn), the inhibition was inactive: 6.59%.
As for `CC(C)NC(=O)NP(=O)(Oc1ccccc1)Oc1ccccc1`, the figure is inactive: -4.49%; as for `CCN(CC)C(=S)SC(NC=O)C(Cl)(Cl)Cl` (stereo not drawn), inactive: -4.34%; as for `O=C(OC1CN2CCC1CC2)c1cccc2[nH]cnc12` (stereo not drawn), inactive: -11.6%.
As to `O=[As](O)(c1ccc(O)cc1)c1ccccc1O`, the inhibition is inactive: 4.98%.
Turning to `COc1ccc(N/C(=N/P(=O)(N2CCOCC2)N2CCOCC2)N2CCOCC2)cc1`, the inhibition was inactive: -35.4%.
For the compound `O=C(OC1CN2CCC1CC2)C12CC3CC(CC(C3)C1)C2` (stereo not drawn), the inhibition was inactive: -38.4%.
On to `Cc1cc(=O)[nH]c(N[N+](=O)[O-])n1`, for which the inhibition is inactive: -3.74%.
As to `Cc1c2c(nc3ccccc13)SC(C(Cl)Cl)C2` (stereo not drawn), the inhibition was inactive: 17.5%.
For `COc1ccc2nc(NP(=O)(c3ccccc3)c3ccccc3)sc2c1`, the inhibition was inactive: -6.02%.
With `COc1cc(I)ccc1[As](=O)(O)O`, the inhibition was inactive: 22.1%.
To `CCOC(=O)c1ccc(NC(=O)C(C)(CCl)SC)cc1` (stereo not drawn) belongs inactive: -0.63%; to `COP1(=S)c2c(C)nn(CCC#N)c2N=C(c2ccc(F)cc2)N1C` (stereo not drawn), inactive: -5.43%; to `Cc1cc(SC(NC=O)C(Cl)(Cl)Cl)ncn1` (stereo not drawn), inactive: -17.8%.
To `O=P(Nc1ccccn1)(c1cccc2ccccc12)c1cccc2ccccc12` belongs inactive: 7.4%; to `CCOC(=O)Nc1ccc([As](=O)(O)O)c(O)c1`, inactive: -0.59%; to `Cc1cc(SC(NC(=O)c2ccccc2)C(Cl)(Cl)Cl)nc(C(C)C)n1` (stereo not drawn), inactive: -17.8%.
As for `O=P1(Nc2ncccn2)COc2ccccc2OC1`, the figure is inactive: -7.96%; as for `O=P1(Nc2ccc(Br)cn2)COc2ccccc2OC1`, inactive: -7.49%.
With `Nc1cccc([As](=O)(O)c2ccccc2)c1`, the inhibition was inactive: 9.46%.
To `CC1CCC(C(C)C)C(OP(=O)(Nc2ccccn2)c2ccccc2)C1` (stereo not drawn) belongs inactive: -23.7%.
To `O=C(/C=C/c1ccccc1)OC1CN2CCC1CC2` (stereo not drawn) belongs inactive: 12.6%; to `CN(C)C1(CNC(=O)c2ccc(S(C)(=O)=O)cc2)CCCCC1`, inactive: 5.2%; to `CC(C)/C=N\N=C(\N)N[N+](=O)[O-]`, inactive: 6.3%.
To `CCC1=CC2Cc3nc4ccc(Cl)cc4c(N)c3C(C1)C2` (stereo not drawn) belongs inactive: 3.08%; to `Clc1n[nH]nc1-c1nn[nH][15n]1`, inactive: -26%; to `CC(C)(C)C(=O)NC(Sc1ncccn1)C(Cl)(Cl)Cl` (stereo not drawn), inactive: 10.3%.
As for `Cc1ccc(NCCc2c([N+](=O)[O-])cc([N+](=O)[O-])cc2[N+](=O)[O-])cc1`, the inhibition is inactive: -3.19%.
To `COc1cc(C2NCCC3(OCCO3)C2(C)C)cc(OC)c1OC` (stereo not drawn) belongs inactive: 0.11%.
To `CCOP(=O)(Nc1cccc2ccccc12)OCC` belongs inactive: 6.59%; to `O=[As](O)(O)c1cccnc1`, inactive: 12.8%.
In the case of `O=C(OC1CN2CCC1CC2)c1ccc(Cl)cc1` (stereo not drawn), the inhibition was inactive: -3.68%.
To `Cc1cccc(OCC(=O)OC2CN3CCC2CC3)c1` (stereo not drawn) belongs inactive: 11.3%; to `O=[As](O)(c1cccc(O)c1)c1cccc(O)c1`, inactive: -5.03%.
To `O=[N+]([O-])c1ccc2c(c1)nnn2O` belongs inactive: -12.2%; to `CN(C)C(=O)c1cc([N+](=O)[O-])cc2c1-c1c(cc([N+](=O)[O-])cc1[N+](=O)[O-])C2=O`, inactive: -34.9%.
As for `CCOP1(=S)c2c(C)nn(CCC#N)c2N=C(c2ccc(F)cc2)N1C` (stereo not drawn), the figure is inactive: -7.06%; as for `CCOP1(=S)c2c(C)nn(CCC#N)c2N=C(c2ccccc2F)N1C` (stereo not drawn), inactive: -22.7%; as for `O=P(Nc1nccs1)(Oc1ccccc1)Oc1ccccc1`, inactive: 1.19%.
Regarding `Nc1ccccc1[As](=O)(O)c1ccccc1`, the inhibition is inactive: 12.9%.
To `Cc1ccc(OP(=O)(Nc2ccccn2)Oc2ccc(C)cc2)cc1` belongs inactive: -29.6%; to `Cc1ccccc1OP(=O)(Nc1ccccn1)Oc1ccccc1C`, inactive: -11.8%.
Regarding `CN(C)C(=O)Oc1noc2ccccc12`, the inhibition is inactive: -16.3%.
To `O=C(NC1CCS(=O)(=O)C1)NP(=S)(Oc1ccccc1)Oc1ccccc1` (stereo not drawn) belongs inactive: 0.52%; to `CCNC(=S)/N=C(\N)N[N+](=O)[O-]`, inactive: -15.1%; to `c1ccc(-c2nn[nH]n2)c(-c2nn[nH]n2)c1`, inactive: -5.28%.
To `Cc1ccc(NP(=O)(Oc2cccc(C)c2)Oc2cccc(C)c2)nc1` belongs inactive: -4.11%; to `C[C@H]1OP(=O)(Oc2ccccc2)C[C@@H]2O[C@@H]21` (stereo partly drawn), inactive: -11.6%.
To `C[C@@H]1C=CCP(=O)(Oc2ccccc2)O1` (stereo partly drawn) belongs inactive: -20.4%; to `CC(=O)Nc1ccc([As](=O)(O)O)c(O)c1`, inactive: 7.78%.
Regarding `CC(=O)Nc1ccc(Oc2c([N+](=O)[O-])cc([N+](=O)[O-])cc2[N+](=O)[O-])cc1`, the inhibition is inactive: -11.2%.
To `CCOc1ccc(C2=NCC(CBr)S2)cc1` (stereo not drawn) belongs inactive: 13.1%.
As for `CC(C)(C)C(=O)NC(Sc1ccccc1)C(Cl)(Cl)Cl` (stereo not drawn), the figure is inactive: -12.6%; as for `CC(C)C(=O)NC(Sc1ccccc1)C(Cl)(Cl)Cl` (stereo not drawn), inactive: 11.5%.
`CC(=O)NC(SC(=S)N(C)C)C(Cl)(Cl)Cl` (stereo not drawn): the inhibition was inactive: 4.17%.
As for `O=[N+]([O-])c1ncn(CCn2cnc([N+](=O)[O-])n2)n1`, the figure is inactive: 4.03%; as for `O=[As](O)(c1ccccc1)c1ccc(O)cc1`, inactive: -16.8%.
On to `C(Cc1nn[nH]n1)Cc1nn[nH]n1`, for which the inhibition was inactive: 12.5%.
As for `Nc1ccc([As](=O)(O)c2ccc([N+](=O)[O-])cc2)cc1`, the figure is inactive: 12.4%.
For `O=C(OC1CN2CCC1CC2)c1cccc(Cl)c1` (stereo not drawn), the inhibition is inactive: 1.75%.
As for `O=P(Nc1ccccn1)(c1ccc(Br)cc1)c1ccc(Br)cc1`, the figure is inactive: -5.35%.
Consider `O=P(Nc1nc2ccccc2s1)(c1ccccc1)c1ccccc1`, for which the inhibition was inactive: 23.1%.
As for `CC(C)(C)C(=O)NC(Sc1ccncn1)C(Cl)(Cl)Cl` (stereo not drawn), the figure is inactive: -2.22%; as for `O=[N+]([O-])c1ncn(CCn2ncnc2[N+](=O)[O-])n1`, inactive: 11.2%; as for `O=[N+]([O-])c1cccc(NC2=NCC(CBr)S2)c1` (stereo not drawn), inactive: -2.28%.
To `Nc1ccc([As](=O)(O)c2ccc(N)cc2)cc1` belongs inactive: -16.4%; to `C[N+]1=C2C=CC=CC=C2SC12C([N+](=O)[O-])=CC([N+](=O)[O-])=C[C-]2[N+](=O)[O-]` (stereo not drawn), inactive: -25%.
As for `CCN(/C(=N/P(=O)(N1CCOCC1)N1CCOCC1)N1CCOCC1)c1ccc(OC)cc1`, the figure is inactive: -1.38%; as for `CC(C)=N/N=C(\N)N[N+](=O)[O-]`, inactive: -0.35%.
As for `Cc1ccc(NP(=O)(Oc2ccccc2)Oc2ccccc2)nc1`, the inhibition was inactive: -32.5%.
To `CCc1nc2c(n1)c1c(non1O)c1c2no[n+]1[O-]` belongs inactive: -0.68%.
To `Nc1cc(N)c2nonc2c1[N+](=O)[O-]` belongs inactive: -34.3%; to `O=C(NC(Sc1ccncn1)C(Cl)(Cl)Cl)c1ccccc1` (stereo not drawn), inactive: 2.33%; to `NC(=O)c1cc([N+](=O)[O-])cc([N+](=O)[O-])c1N`, inactive: 19.5%.
As for `Cc1ccc(N/C(=N/P(=O)(N2CCOCC2)N2CCOCC2)N2CCOCC2)cc1`, the figure is inactive: -14.1%.
Regarding `COc1ccccc1OP(=O)(Nc1ccc(C)cn1)Oc1ccccc1OC`, the inhibition was inactive: 13.9%.
To `Cc1ccc(OP(=O)(Nc2nccs2)Oc2ccc(C)cc2)cc1` belongs inactive: 23.8%; to `CN1CCCC(OC(=O)C(c2ccccc2)c2ccccc2)C1` (stereo not drawn), inactive: 9.83%; to `Clc1ccc(Cl)c(NC2=NCC(CBr)S2)c1` (stereo not drawn), inactive: -27.6%.
As for `CCN(N=Nc1nonc1N)c1nonc1N`, the figure is inactive: 19%.
To `O=P(Nc1nc2ccc(Cl)cc2s1)(c1ccccc1)c1ccccc1` belongs inactive: 10.4%; to `Cc1cc(SC(NC(=O)c2ccc(F)cc2)C(Cl)(Cl)Cl)ncn1` (stereo not drawn), inactive: 4.36%; to `Cc1ccc(NP(=O)(Oc2ccccc2F)Oc2ccccc2F)nc1`, inactive: 20.6%.
